PubChem BioAssay AID624099 – ICCB-Longwood | 2012
The deposit covers about 21,000 reagents; below is an unselected part. Of all reagents, 497 (2.4%) were called active. 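Higher z means weaker E2 silencing; only reporter increases were scored, and knock-downs that hurt cell survival may mask genuine repressor factors.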 A number with no mark means an inactive call.

- Assay: 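Human genes that papillomavirus E2 requires to repress the HPV18 LCR promoter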 (primary screen)
- System: human C33A cervical carcinoma cells (HPV-negative) stably expressing BPV1 E2 and an HPV18 LCR luciferase reporter
- Reagent: siRNA pool against human genes, 40 nM
- Timing: 72 h
- Measurement: 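HPV18 LCR reporter light per well, converted to plate-wise z-scores that exclude control wells, and averaged over triplicate plates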
- Direction: mean z-score and z-score: higher = stronger reporter signal, weaker E2 silencing
- Active means: 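Mean z ≥ 2 together with z ≥ 2 in two or more of the three replicates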

LOC392208 (retired record) — mean z-score: -0.43; z-score, replicate A: -0.53; z-score, replicate B: -0.06; z-score, replicate C: -0.7
KRTAP9-3 — mean z-score: -0.64; z-score, replicate A: -0.63; z-score, replicate B: -0.66; z-score, replicate C: -0.63
GCG — mean z-score: 0.96; z-score, replicate A: 0.67; z-score, replicate B: 0.85; z-score, replicate C: 1.37
WIF1 — mean z-score: -0.03; z-score, replicate A: -0.17; z-score, replicate B: 0.17; z-score, replicate C: -0.08
ANKFN1 — mean z-score: 0.59; z-score, replicate A: 0.77; z-score, replicate B: 0.48; z-score, replicate C: 0.52
MOB3C — mean z-score: -0.11; z-score, replicate A: -0.99; z-score, replicate B: 0.05; z-score, replicate C: 0.63
GNMT — mean z-score: -0.05; z-score, replicate A: -0.04; z-score, replicate B: 0.02; z-score, replicate C: -0.14
TAGAP — mean z-score: -1.04; z-score, replicate A: -1.23; z-score, replicate B: -0.97; z-score, replicate C: -0.93
LOC284600 — mean z-score: 0.37; z-score, replicate A: 0.52; z-score, replicate B: -0.04; z-score, replicate C: 0.61
PAFAH1B2 — mean z-score: 0.22; z-score, replicate A: 0.24; z-score, replicate B: 0.15; z-score, replicate C: 0.26
PRCD — mean z-score: 0.14; z-score, replicate A: -0.08; z-score, replicate B: 0.02; z-score, replicate C: 0.47
PPID — mean z-score: 0.32; z-score, replicate A: 0.4; z-score, replicate B: 0.33; z-score, replicate C: 0.22

Single entries from the entries so far.
PAFAH1B2, z-score, replicate A → 0.24
Under “z-score, replicate B”, LOC284600 is entered as -0.04
